Compound potency records, mixed from different reports. Data source: NIAID ChemDB in PubChem.

Shared fields: enzyme or target tests; organism: HIV-1; target: Reverse transcriptase

Blank or dashed fields: not listed here. ICn is the concentration giving n% inhibition. Lines come from different laboratories, so protocols vary.

Cc1cccc2sc(NC(=S)N[C@@H](C)c3cccc4ccccc34)nc12 ; read-out: Ki ; value: >100 µM
CC(C)=CCN1Cc2cccc3[nH]c(=S)n(c23)C[C@@H]1C ; read-out: Ki ; value: 0.87 µM
O=S1(c2ccc(Cl)cc2)=NC(=S)Nc2ccc(Cl)cc21 ; read-out: IC50 ; value: 4.4 µM
C[C@H](CNC(=S)Nc1ccccn1)c1ccccc1 ; read-out: IC50 ; value: 3.5 µM
CCN1c2ncc(COc3cccc(C(N)=O)c3)cc2C(=O)N(C)c2ccc(Cl)nc21 ; read-out: IC50 ; read by: nucleotide incorporation / radiometric ; strain: WT ; value: <1 µM
CCn1cc(C(=O)O)c(=O)c2cc(I)c(Oc3ccnc(Nc4ccc(C#N)cc4)n3)cc21 ; read-out: IC50 ; read by: RT activity / fluorescence ; value: 0.37 µM
CCN1c2ncc(COc3cccc(C(=O)O)c3)cc2C(=O)N(C)c2ccc(Cl)nc21 ; changes: RT-Y181C ; read-out: IC50 ; read by: nucleotide incorporation / radiometric ; value: <1 µM
CC(C)(C)n1cc(C(=O)O)c(=O)c2cc(Br)c(Oc3ccnc(Nc4ccc(C#N)cc4)n3)cc21 ; read-out: IC50 ; read by: RT activity / fluorescence ; value: 10.05 µM
Cc1c([C@@H](C)c2c(F)cccc2F)nc(SC2CCCC2)[nH]c1=O ; read-out: IC50 ; read by: nucleotide incorporation ; value: 1 µM
O=C1c2cccnc2C(=O)N1CCNC(=S)Nc1ccc(Br)cn1 ; changes: RT-Y181I ; read-out: Ki ; read by: nucleotide incorporation ; value: 0.2 µM
CC(C)(C)n1cc(C(=O)O)c(=O)c2cc(I)c(Oc3ccnc(Nc4ccc(C#N)cc4)n3)cc21 ; read-out: IC50 ; read by: RT activity / fluorescence ; value: 6.3 µM
Cc1c(Cc2ccc(F)cc2)nc(SCc2ccc([N+](=O)[O-])cc2)[nH]c1=O ; read-out: IC50 ; read by: nucleotide incorporation / radiometric ; strain: WT ; value: >400 µM
C[C@H](NC(=S)Nc1nc2ccccc2s1)c1cccc2ccccc12 ; read-out: Ki ; value: >100 µM
CCc1c(Sc2ccccn2)n(COCc2ccccc2)c(=O)[nH]c1=O ; changes: RT-T181C ; read-out: IC50 ; read by: RT activity ; value: 5.3 µM
O=c1c2cccn2c2ccccc2n1CCNC(=S)Nc1ccc(Cl)cn1 ; changes: RT-K103N ; read-out: Ki ; read by: nucleotide incorporation ; value: 3.3 µM
CC(C)Cn1cc(C(=O)O)c(=O)c2cc(Br)c(Oc3ccnc(Nc4ccc(C#N)cc4)n3)cc21 ; read-out: IC50 ; read by: RT activity / fluorescence ; value: 7.3 µM
O=C1CSC(c2c(F)cccc2Cl)N1c1cccc(C(F)(F)F)c1 ; read-out: IC50 ; read by: ELISA ; value: >10 µg/mL
CCOc1ccc(CSc2nc(Cc3c(Cl)cccc3Cl)c(C)c(=O)[nH]2)cc1 ; changes: RT-181I ; read-out: IC50 ; read by: nucleotide incorporation / radiometric ; value: >400 µM
Cc1ccc(NC(=S)N[C@@H](C)c2cccc3ccccc23)nc1 ; read-out: IC50 ; value: >100 µM
Cc1cn([C@H]2CC[C@@H](COP(=O)(O)OP(=O)(O)OP(=O)(O)O)O2)c(=O)[nH]c1=O ; changes: RT-Y188L ; read-out: Ki ; read by: RT activity ; value: 0.02 µM
CCCn1cc(C(=O)O)c(=O)c2cc(Br)c(Oc3ccnc(Nc4ccc(C#N)cc4)n3)cc21 ; read-out: IC50 ; read by: RT activity / fluorescence ; value: 0.83 µM
Cc1c(Cc2c(Cl)cccc2Cl)nc(S(=O)(=O)Cc2ccc(Br)cc2)[nH]c1=O ; changes: RT-K103N ; read-out: IC50 ; read by: nucleotide incorporation / radiometric ; value: >400 µM
O=S1(c2cccc(Cl)c2)=NC(=S)Nc2ccc(Cl)cc21 ; read-out: IC50 ; value: 0.03 µM
CCN1c2ncc(/C=C\c3ccccc3)cc2C(=O)N(C)c2cccnc21 ; read-out: IC50 ; read by: nucleotide incorporation / radiometric ; strain: WT ; value: <1 µM
Cc1ccc(CN2C(=O)CSC2c2c(Cl)cccc2Cl)o1 ; read-out: IC50 ; read by: ELISA ; value: ~10 µg/mL
CCCc1cccnc1N(C)C1CCN(C(=O)c2cc3cc(NS(C)(=O)=O)ccc3[nH]2)CC1 ; changes: RT-P236L ; read-out: IC50 ; read by: nucleotide incorporation ; strain: IIIB ; value: >1 µM
Cc1c(Cc2c(Cl)cccc2Cl)nc(S(=O)(=O)Cc2ccc([N+](=O)[O-])cc2)[nH]c1=O ; read-out: IC50 ; read by: nucleotide incorporation / radiometric ; strain: WT ; value: >400 µM
CCN1c2ncc(COc3cc[n+]([O-])cc3)cc2C(=O)N(C)c2cccnc21 ; read-out: IC50 ; read by: nucleotide incorporation / radiometric ; strain: WT ; value: <1 µM
O=c1cnc2ccccc2n1CCNC(=S)Nc1ccc(Br)cn1 ; read-out: Ki ; read by: nucleotide incorporation ; value: 0.2 µM
Nc1ccn([C@H]2CC[C@@H](COP(=O)(O)OP(=O)(O)OP(=O)(O)O)O2)c(=O)n1 ; read-out: Ki ; read by: nucleotide incorporation ; strain: HXB2D ; value: 0.14 µM
O=C1CCSC(c2c(Cl)cccc2Cl)N1Cc1ccco1 ; read-out: IC50 ; read by: ELISA ; value: <10 µg/mL
Cc1c(Cc2c(Cl)cccc2Cl)nc(SCc2cccc(C#N)c2)[nH]c1=O ; changes: RT-K103N ; read-out: IC50 ; read by: nucleotide incorporation / radiometric ; value: >400 µM
O=C1CSC(c2c(F)cccc2F)N1c1cccc(C(F)(F)F)c1 ; read-out: IC50 ; read by: ELISA ; value: >10 µg/mL
CCc1c([Se]c2ccccc2)n(COCc2ccccc2)c(=O)[nH]c1=O ; changes: RT-T181C ; read-out: IC50 ; read by: RT activity ; value: 2.4 µM
Cc1c(Sc2ccccc2)n(COCCO)c(=O)[nH]c1=O ; changes: RT-I135T ; read-out: IC50 ; value: ~2 µM
O=c1[nH]cnc2c1ncn2[C@H]1CC[C@@H](CO)O1 ; read-out: IC50 ; read by: RT activity ; strain: WT ; value: 0.2 µM
CC(C)=CCN1Cc2cccc3[nH]c(=S)n(c23)C[C@@H]1C ; changes: RT-T181C ; read-out: IC50 ; read by: RT activity ; value: 8.5 µM
CCCCn1cc(C(=O)O)c(=O)c2cc(Br)c(Oc3ccnc(Nc4ccc(C#N)cc4)n3)cc21 ; read-out: IC50 ; read by: RT activity / fluorescence ; value: 0.65 µM
CCN1c2ncc(OCc3ccccc3)cc2C(=O)N(C)c2ccc(Cl)nc21 ; changes: RT-Y181C ; read-out: IC50 ; read by: nucleotide incorporation / radiometric ; value: >1 µM
Nc1ncnc2c1ncn2CCOCP(=O)(O)OP(=O)(O)OP(=O)(O)O ; read-out: IC50 ; read by: nucleotide incorporation / radiometric ; value: 0.18 µM
Cc1cn([C@H]2C=C[C@@H](COP(=O)(O)OP(=O)(O)OP(=O)(O)O)O2)c(=O)[nH]c1=O ; read-out: Ki ; read by: nucleotide incorporation ; strain: HXB2D ; value: 0.03 µM
CCN1c2ncc(CCc3ccncc3)cc2C(=O)N(C)c2ccc(Cl)nc21 ; changes: RT-Y181C ; read-out: IC50 ; read by: nucleotide incorporation / radiometric ; value: <1 µM
Cc1cccc(NC(=S)N[C@@H](C)c2cccc3ccccc23)n1 ; read-out: Ki ; value: >100 µM
COc1ccc(/C=C/NC(=O)Nc2ccc(Cl)cn2)cc1OC ; changes: RT-V106A ; read-out: Ki ; read by: nucleotide incorporation ; value: 20 µM
O=S1(c2ccccc2)=NC(=S)Nc2ccc(Cl)cc21 ; read-out: IC50 ; value: >0.4 µM
Cc1csc(NC(=S)N[C@@H](C)c2ccccc2)n1 ; read-out: IC50 ; value: >100 µM
Cc1cn([C@H]2CC[C@@H](COP(=O)(O)OP(=O)(O)OP(=O)(O)O)O2)c(=O)[nH]c1=O ; changes: RT-I132M ; read-out: IC50 ; read by: nucleotide incorporation / radiometric ; value: 0.06 µM
COc1cc(CSc2nc(Cc3c(F)cccc3F)c(C)c(=O)[nH]2)cc(OC)c1 ; changes: RT-181I ; read-out: IC50 ; read by: nucleotide incorporation / radiometric ; value: >400 µM
C[C@@H](CNC(=S)Nc1nc2ccccc2s1)c1ccccc1 ; read-out: IC50 ; value: >100 µM

A second listing of 5 rows from above:

| structure | changes | read-out | read by | strain | value |
|---|---|---|---|---|---|
| O=S1(c2ccc(Cl)cc2)=NC(=S)Nc2ccc(Cl)cc21 | - | IC50 | - | - | 4.4 µM |
| CCN1c2ncc(OCc3ccccc3)cc2C(=O)N(C)c2ccc(Cl)nc21 | RT-Y181C | IC50 | nucleotide incorporation / radiometric | - | >1 µM |
| Cc1cn([C@H]2CC[C@@H](COP(=O)(O)OP(=O)(O)OP(=O)(O)O)O2)c(=O)[nH]c1=O | RT-Y188L | Ki | RT activity | - | 0.02 µM |
| Cc1csc(NC(=S)N[C@@H](C)c2ccccc2)n1 | - | IC50 | - | - | >100 µM |
| CCN1c2ncc(COc3cc[n+]([O-])cc3)cc2C(=O)N(C)c2cccnc21 | - | IC50 | nucleotide incorporation / radiometric | WT | <1 µM |